{
  "sequences": {"note": "Sequences of proteins named here, by UniProt entry; tags and fusion partners are left off.", "UniProt Q9GZU1, whole entry, looked up": "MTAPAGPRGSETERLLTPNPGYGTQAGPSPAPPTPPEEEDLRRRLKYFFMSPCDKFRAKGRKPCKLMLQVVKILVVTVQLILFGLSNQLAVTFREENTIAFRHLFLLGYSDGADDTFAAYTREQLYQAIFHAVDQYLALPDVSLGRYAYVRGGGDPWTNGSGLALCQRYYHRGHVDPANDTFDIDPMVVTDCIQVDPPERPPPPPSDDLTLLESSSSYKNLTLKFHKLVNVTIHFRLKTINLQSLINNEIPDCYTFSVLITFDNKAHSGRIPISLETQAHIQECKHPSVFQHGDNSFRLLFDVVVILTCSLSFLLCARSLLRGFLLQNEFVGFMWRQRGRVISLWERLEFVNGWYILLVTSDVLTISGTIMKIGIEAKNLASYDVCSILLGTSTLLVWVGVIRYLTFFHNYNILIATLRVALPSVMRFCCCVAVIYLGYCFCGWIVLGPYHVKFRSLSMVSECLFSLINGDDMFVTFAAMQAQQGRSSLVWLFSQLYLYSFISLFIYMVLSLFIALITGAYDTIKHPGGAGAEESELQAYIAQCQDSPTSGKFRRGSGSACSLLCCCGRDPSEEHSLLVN"},
  "source": "PubChem BioAssay AID624414",
  "about": "(National Center for Advancing Translational Sciences (NCATS), 2012)",
  "note": "Only a part is listed here, and it is no random draw. Calls of active or inactive are those of the source. Cut-off read from the data, not from the text of the source: active = activation above about 50%; inconclusive = mostly about 30% to 49%; inactive = weaker than that.",
  "data": [
    {"biological_target": "Mucolipin-1 (Homo sapiens) (UniProt Q9GZU1)", "assay": "qHTS for Agonists of the Human Mucolipin Transient Receptor Potential 1 (TRPML1); note: 0% is about no effect", "conditions": "TRPML1-expressing cells, Ca2+ dye fluorescence, FDSS; active compounds read high", "excerpt": "Mutations of human Mucolipin transient receptor potential 1 (TRPML1) cause type IV mucolipidosis (ML4), a devastating neurodegenerative disease in young children. […] Currently, there is no treatment for ML4. […] Under physiological conditions, TRPMLs regulate membrane trafficking by transducing information about PI(3,5)P2 levels into changes in juxtaorganellar Ca2+, thereby triggering membrane fusion/fission events in the late endocytic pathways (endolysosomal trafficking). In addition, TRPML1 mediates release of Fe2+ from late endosomes and lysosomes, which is essential for cellular iron metabolism. Thus, impaired ion (Ca2+ and Fe2+) homeostasis underlies lysosomal dysfunction and ML4 phenotypes. In ML4 cells, the problem is twofold. First, defective Ca2+-dependent membrane trafficking due to TRPML1-deficiency causes accumulation of lipids and other bio-materials in the lysosome. […]\nTRPML1-DL cells are dissociated from flasks, counted and, brought up to a density of 500,000 cells per mL of media containing a 1X Tet inducer. […] The assay plate is read on the FDSS using the following protocol: 10 second baseline read, 23nL of compounds and controls are added using 1536 pintool, agonist read for 110 seconds, 1 uL EC80 addition (4uM final 54-4 diluted in media), antagonist read for 110 seconds.", "values": [
      {"smiles": "O=[N+]([O-])c1cc(Oc2ccc([N+](=O)[O-])cc2C(F)(F)F)cc([N+](=O)[O-])c1", "activation": "active: 94.9%"}
    ]}
  ]
}
